Anti-infective test results gathered from many reports (values: NIAID ChemDB through PubChem).

Conditions beyond the fields shown may differ between rows.

structure | target | strain | dose | test | species | measure | method | value
COC(=O)C(C(=O)C(N)=O)c1csc(-n2nc(-c3ccccc3)cc2-c2ccccc2)n1 |  | H37Rv | 6.25 µg/mL | culture | Mycobacterium tuberculosis | inhibition | resazurin | 22%
Cc1ccc2ccccc2c1NC(=O)CCC(=O)O |  | H37Rv |  | culture | Mycobacterium tuberculosis | MIC |  | >100 µg/mL
C1=C(CCNCCNCCCCc2ccccc2)CCCC1 |  |  |  | culture | Mycobacterium tuberculosis | MIC |  | 12.5 µM
C/C(CCl)=N\NC1=NC(C)(CCl)P(=O)(NNc2ncccn2)S1 |  | H37Rv |  | culture | Mycobacterium tuberculosis | MIC bound | BACTEC | >12.5 µg/mL
O=C1NC(=O)c2c1cccc2[N+](=O)[O-] |  | H37Rv |  | culture | Mycobacterium tuberculosis | MIC |  | >100 µg/mL
Cc1cccc(-c2cncc(N3CCN(c4ccncc4)CC3)n2)c1 | UL97 kinase |  | 1 µM | target | Cytomegalovirus | inhibition |  | <50%
Cc1cc(C(N)=O)c(C(N)=O)c(=O)[nH]1 |  | H37Rv | 12.5 µg/mL | culture | Mycobacterium tuberculosis | inhibition | BACTEC | 2%
CC(C)=CCC/C(C)=C/CNCCNCc1cccc(C)c1 |  |  |  | culture | Mycobacterium tuberculosis | MIC |  | 50 µM
CO[C@@H](C)[C@](O)(C(=O)OCC1=CC[N+]2([O-])CC[C@@H](O)[C@H]12)C(C)C |  | H37Rv |  | culture | Mycobacterium tuberculosis | MIC | BACTEC | ≥128 µg/mL
CCOc1ccc(-c2cncc(N3CCN(c4cccc(Cl)c4)CC3)n2)cc1 | UL97 kinase |  |  | target | Cytomegalovirus | IC50 |  | <10 µM
O=[N+]([O-])c1ccc(-c2nc(Cl)c3c(n2)CCCC3)o1 |  | H37Rv |  | culture | Mycobacterium tuberculosis | MIC bound | BACTEC | ≤12.5 µg/mL
CCCCCCCCCCCNCCNCCF |  |  |  | culture | Mycobacterium tuberculosis | MIC |  | 25 µM
CCOc1ccc(-c2cncc(N3CCN(c4ccc(C(C)=O)cc4)CC3)n2)cc1 | UL97 kinase |  |  | target | Cytomegalovirus | IC50 |  | <100 µM
O=C(O)c1cccc(O)c1O |  | H37Rv |  | culture | Mycobacterium tuberculosis | MIC |  | >100 µg/mL
Cc1c(N)nc([C@H](CC(N)=O)NC[C@@H](N)C(N)=O)nc1C(=O)N[C@H](C(=O)NC(C)C(O)CC(=O)NC(C(=O)NC(OC1OC(C)C(N)C(O)C1O)C(O)c1nc(-c2nc(C(=O)NCCCCN)cs2)cs1)[C@H](C)O)C(OC1OC(CO)C(O)C(O)C1OC1OC(CO)C(O)C(OC(N)=O)C1O)c1cnc[nH]1.Cl.Cl.Cl.Cl |  | TAC-R |  | culture | Mycobacterium tuberculosis | MIC |  | 0.1 µg/mL
COc1cccc(-c2cncc(N3CCN(c4cccc(OC)c4)CC3)n2)c1 | UL97 kinase |  |  | target | Cytomegalovirus | IC50 |  | <10 µM
c1ccc(CC[n+]2ccccc2-c2ccccc2)cc1 |  | H37Rv |  | culture | Mycobacterium tuberculosis | MIC |  | >100 µg/mL
CCCCCCCCCCCNCCN[C@H]1C[C@@H]1c1ccccc1 |  |  |  | culture | Mycobacterium tuberculosis | MIC |  | 50 µM
Nc1c(C(=O)Nc2cccc3c2C(=O)c2ccccc2C3=O)ccc2c1C(=O)c1ccccc1C2=O |  | H37Rv |  | culture | Mycobacterium tuberculosis | MIC bound | BACTEC | >12.5 µg/mL
Cc1ccc(N(C)S(=O)(=O)c2ccc(N)c(Cl)c2)cc1 |  | H37Rv |  | culture | Mycobacterium tuberculosis | MIC |  | >100 µg/mL
COC(=O)c1cc2c(n1S(=O)(=O)c1ccc(C)cc1)C(=O)C(=O)c1[nH]cc(C(=O)OCc3ccccc3)c1-2 |  | H37Rv | 6.25 µg/mL | culture | Mycobacterium tuberculosis | inhibition | resazurin | 27%
OCCN1CCNC1=S |  | H37Rv |  | culture | Mycobacterium tuberculosis | MIC |  | 50 µg/mL
CCC1CCCCN1CCNCCC(c1ccccc1)c1ccccc1 |  |  |  | culture | Mycobacterium tuberculosis | MIC |  | 25 µM
CCOC(=O)c1cc(=O)n(C)c2ccc(OC)cc12 |  | H37Rv |  | culture | Mycobacterium tuberculosis | MIC |  | >100 µg/mL
Fc1ccc(N2CCCCC2)c(NC(=S)c2ccncc2)c1 | Yes |  | 10 µM | host protein |  | inhibition | kinase activity | -4%
COc1ccc(N2CCN(c3cncc(-c4cccc(C#N)c4)n3)CC2)cc1OC | UL97 kinase |  |  | target | Cytomegalovirus | IC50 |  | <100 µM
Cc1cc(Nc2ccc(Cl)cc2S(=O)(=O)O)c2c3c1nc(=O)/c(=C(\O)c1ccccc1)c=3c1ccccc1c2=O.N |  | H37Rv |  | culture | Mycobacterium tuberculosis | MIC |  | >100 µg/mL
O=C([O-])[C@H]([O-])[C@@H]([O-])C(=O)[O-].O=C([O-])[C@H]([O-])[C@@H]([O-])C(=O)[O-].[Na+].[Na+].[Na+].[Na+].[O]=[V+2].[O]=[V+2] |  | H37Rv |  | culture | Mycobacterium tuberculosis | MIC bound | BACTEC | >12.5 µg/mL
C=CCc1ccc(O)c(OC)c1 |  | 2993 |  | culture | Candida glabrata | MIC90 | turbidity | 495 µg/mL
CN(C)CCC(=O)c1ccc(Cl)cc1 |  | H37Rv |  | culture | Mycobacterium tuberculosis | MIC |  | 25 µg/mL
O=[N+]([O-])c1cc(Cl)c2[nH]c3c(Cl)cc([N+](=O)[O-])cc3c2c1 |  | H37Rv | 12.5 µg/mL | culture | Mycobacterium tuberculosis | inhibition | BACTEC | 94%
Cc1ccccc1NC(=O)C(=O)Nc1ccccc1C |  | H37Rv |  | culture | Mycobacterium tuberculosis | MIC |  | >100 µg/mL
CNC(=O)Oc1ccccc1C(=O)Nc1ccccc1 |  | H37Rv |  | culture | Mycobacterium tuberculosis | MIC bound | BACTEC | >12.5 µg/mL
O/N=C(/C(=N/O)c1ccccc1)c1ccccc1 |  | H37Rv |  | culture | Mycobacterium tuberculosis | MIC |  | >100 µg/mL
CC1CCCC(NCCNCC23CC4CC(CC(C4)C2)C3)C1C |  |  |  | culture | Mycobacterium tuberculosis | MIC |  | 9.4 µM
O=C1CCC(=O)N1Br |  | H37Rv |  | culture | Mycobacterium tuberculosis | MIC |  | 50 µg/mL
C1CCC2C(C1)CCCN2CCNCC12CC3CC(CC(C3)C1)C2 |  |  |  | culture | Mycobacterium tuberculosis | MIC |  | 18.8 µM
CCC(CN(C)C)C(=O)c1ccccc1 |  | H37Rv |  | culture | Mycobacterium tuberculosis | MIC |  | >100 µg/mL
O=C1CN(/N=C/c2ccc(-c3ccc(F)cc3)o2)C(=O)N1 |  | H37Rv | 12.5 µg/mL | culture | Mycobacterium tuberculosis | inhibition | BACTEC | 27%
COc1ccc(-c2cncc(N3CCN(c4cccc(Cl)c4)CC3)n2)cc1OC | UL97 kinase |  |  | target | Cytomegalovirus | IC50 |  | <10 µM
CCOC(=O)C(CCN(CC)CC)c1ccccc1 |  | H37Rv |  | culture | Mycobacterium tuberculosis | MIC |  | 100 µg/mL
COc1cccc(N2CCN(c3cncc(-c4ccc(SC)cc4)n3)CC2)c1 | UL97 kinase |  |  | target | Cytomegalovirus | IC50 |  | <10 µM
FC(F)(F)Oc1ccc(CNCCNC2C3CC4CC(C3)CC2C4)cc1 |  |  |  | culture | Mycobacterium tuberculosis | MIC |  | 12.5 µM
C[C@@H](O)[C@H](N)C(=O)N[C@@H](CCCCN)C(=O)N1CCC[C@H]1C(=O)N[C@@H](CCCN=C(N)N)C(=O)O |  | H37Rv |  | culture | Mycobacterium tuberculosis | MIC bound | resazurin | >6.25 µg/mL
CCCCCCCCCCN1c2ccccc2S(=O)c2cc([N+](=O)[O-])ccc21 |  | H37Rv |  | culture | Mycobacterium tuberculosis | MIC |  | >100 µg/mL
COC(=O)c1cc2c3c(ccc2[nH]1)N(C(=O)c1cc2c4c(ccc2[nH]1)N(C(=O)c1cc2c5c(ccc2[nH]1)N(C(N)=O)CC5)CC4)CC3 |  | H37Rv |  | culture | Mycobacterium tuberculosis | MIC | BACTEC | ≥12.5 µg/mL
Cc1ccc(-c2cncc(N3CCN(c4cnccn4)CC3)n2)cc1 | UL97 kinase |  |  | target | Cytomegalovirus | IC50 |  | <10 µM
COc1c(-c2ccccc2)nc2ccc(Oc3ccccc3)nn12 |  | H37Rv | 12.5 µg/mL | culture | Mycobacterium tuberculosis | inhibition | BACTEC | 96%
CC(C)c1ccc2c(c1)CC[C@H]1[C@](C)(CNCCNCCc3ccccc3Cl)CCC[C@]21C |  |  |  | culture | Mycobacterium tuberculosis | MIC |  | 50 µM
Nc1ccc(N=Nc2cccc3c(N=Nc4ccc(N)nc4N)cccc23)c(N)n1 |  | H37Rv |  | culture | Mycobacterium tuberculosis | MIC bound | resazurin | >6.25 µg/mL
CC(=O)Nc1ccc(C(=O)C(=O)c2ccc(NC(C)=O)cc2)cc1 |  | H37Rv |  | culture | Mycobacterium tuberculosis | MIC |  | >100 µg/mL
O=c1cc2oc3cc(O)c(O)cc3c(-c3ccccc3)c-2cc1O |  | H37Rv |  | culture | Mycobacterium tuberculosis | MIC bound | BACTEC | >12.5 µg/mL
O=[As](O)(O)c1ccc(Nc2nccs2)cc1 |  | H37Rv |  | culture | Mycobacterium tuberculosis | MIC |  | >100 µg/mL
NC(=O)C1=C(C(N)=O)SC(C(N)=O)=C(C(N)=O)S1 |  | H37Rv |  | culture | Mycobacterium tuberculosis | MIC bound | BACTEC | >6.25 µg/mL
Cc1ccc(Cl)cc1C(=O)c1ccccc1C(=O)O |  | H37Rv |  | culture | Mycobacterium tuberculosis | MIC |  | >100 µg/mL
COc1ccccc1NC(=O)CC(=O)N1N=C(c2ccccc2)C(N=Nc2ccc(Cl)cc2)C1=O |  | H37Rv | 12.5 µg/mL | culture | Mycobacterium tuberculosis | inhibition | BACTEC | 27%
Oc1ccc(O)c(Cl)c1Cl |  | H37Rv |  | culture | Mycobacterium tuberculosis | MIC |  | 100 µg/mL

The last 6 rows once more:

structure,target,strain,dose,test,species,measure,method,value
O=c1cc2oc3cc(O)c(O)cc3c(-c3ccccc3)c-2cc1O,,H37Rv,,culture,Mycobacterium tuberculosis,MIC bound,BACTEC,>12.5 µg/mL
O=[As](O)(O)c1ccc(Nc2nccs2)cc1,,H37Rv,,culture,Mycobacterium tuberculosis,MIC,,>100 µg/mL
NC(=O)C1=C(C(N)=O)SC(C(N)=O)=C(C(N)=O)S1,,H37Rv,,culture,Mycobacterium tuberculosis,MIC bound,BACTEC,>6.25 µg/mL
Cc1ccc(Cl)cc1C(=O)c1ccccc1C(=O)O,,H37Rv,,culture,Mycobacterium tuberculosis,MIC,,>100 µg/mL
COc1ccccc1NC(=O)CC(=O)N1N=C(c2ccccc2)C(N=Nc2ccc(Cl)cc2)C1=O,,H37Rv,12.5 µg/mL,culture,Mycobacterium tuberculosis,inhibition,BACTEC,27%
Oc1ccc(O)c(Cl)c1Cl,,H37Rv,,culture,Mycobacterium tuberculosis,MIC,,100 µg/mL

Percent inhibition refers to the dose given; in toxicity tests it is the harm to the cells. MIC bound: limit read from a one-dose screen. ICn: concentration for n% inhibition. Blank or dashed fields: not listed here. A number after MIC or MFC names an inhibition level or a share of isolates.